pEC50, pIC50: −log10 of the molar value.
Legend:
[1] = target: Envelope glycoprotein gp160 (Human immunodeficiency virus type 1 group M subtype B (isolate SF162)(HIV-1), UniProt P19550); assay: Displacement of soluble CD4 from HIV1 SF162 gp120 after overnight incubation by ELISA; design: species or system Human immunodeficiency virus type 1 (SF162 ISOLATE)
[2] = target: Envelope glycoprotein gp160 (Human immunodeficiency virus type 1 group M subtype B (isolate SF162)(HIV-1)) (UniProt P19550); assay: Displacement of soluble CD4 from HIV1 SF162 gp120 after overnight incubation by ELISA relative to M48; details: Human immunodeficiency virus type 1 (SF162 ISOLATE)
[3] = Displacement of soluble CD4 from HIV1 CN54 gp120 after overnight incubation by ELISA; design: species or system Human immunodeficiency virus 1
[4] = system: Human immunodeficiency virus 1; assay: Displacement of soluble CD4 from HIV1 CN54 gp120 after overnight incubation by ELISA relative to M48
[5] = system: Human immunodeficiency virus 1; assay: Antiviral activity against subtype C R5 tropic HIV1 p246F10 infected in human TZM-bl cells after 48 hrs by luciferase repoter gene assay; format: functional, organism-based; details: Human immunodeficiency virus 1, p246F10, TZM-bl
[6] = system: Human immunodeficiency virus 1; assay: Antiviral activity against subtype B R5 tropic HIV1 Bal infected in human TZM-bl cells after 48 hrs by luciferase repoter gene assay; format: functional, organism-based; details: Human immunodeficiency virus 1, Bal
[7] = system: Human immunodeficiency virus 1; assay: Antiviral activity against subtype B R5 tropic HIV1 pREJO.c/2864 infected in human TZM-bl cells after 48 hrs by luciferase repoter gene assay; format: functional, organism-based; details: Human immunodeficiency virus 1, pREJO.c/2864, TZM-bl
[8] = system: Human immunodeficiency virus 1; assay: Antiviral activity against subtype C R5 tropic HIV1 VI1358 infected in human TZM-bl cells after 48 hrs by luciferase repoter gene assay; format: functional, organism-based; details: Human immunodeficiency virus 1, VI1358, TZM-bl
[9] = system: Human immunodeficiency virus 1; assay: Antiviral activity against subtype C R5 tropic HIV1 VI829 infected in human TZM-bl cells after 48 hrs by luciferase repoter gene assay; format: functional, organism-based; details: Human immunodeficiency virus 1, VI829, TZM-bl
Method in brief: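 TZM-bl cells (10⁴/well) pre-incubated 30 min at 37 °C, 5% CO₂ with serial compound dilutions, then infected with 200 TCID₅₀ virus; luciferase read after 48 h. Triplicate wells, single experiment; % inhibition versus untreated control plotted against concentration, EC₅₀ by non-linear regression.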

[10] = system: Human immunodeficiency virus 1; assay: Ratio of IC50 for HIV1 CN54 gp120 to IC50 for HIV1 SF162 gp120
[11] = system: Human immunodeficiency virus 1; assay: Ratio of IC50 for HIV1 SF162 gp120 to IC50 for HIV1 CN54 gp120
[12] = system: Human immunodeficiency virus 1; assay: Antiviral activity against subtype B X4 tropic HIV1 3B infected in human TZM-bl cells after 48 hrs by luciferase repoter gene assay; format: functional, organism-based; details: Human immunodeficiency virus 1, 3B
[13] = system: Human immunodeficiency virus 1; assay: Antiviral activity against subtype B X4 tropic HIV1 3B infected in human GHOST cells; format: functional, organism-based; details: Human immunodeficiency virus 1, 3B
[14] = system: Human immunodeficiency virus 1; assay: Antiviral activity against subtype C R5 tropic HIV1 VI829 infected in human GHOST cells; format: functional, organism-based; details: Human immunodeficiency virus 1, VI829, GHOST
[15] = system: Human immunodeficiency virus 1; assay: Antiviral activity against subtype B R5 tropic HIV1 Bal infected in human GHOST cells; format: functional, organism-based; details: Human immunodeficiency virus 1, Bal
[16] = system: Human immunodeficiency virus 1; assay: Antiviral activity against subtype C R5 tropic HIV1 VI1358 infected in human GHOST cells; format: functional, organism-based; details: Human immunodeficiency virus 1, VI1358, GHOST

| SMILES | pIC50 [1] | Ratio IC50 [2] | pIC50 [3] | Ratio IC50 [4] | pEC50 [5] | pEC50 [6] | pEC50 [7] | pEC50 [8] | pEC50 [9] | Ratio IC50 [10] | Ratio IC50 [11] | pEC50 [12] | pEC50 [13] | pEC50 [14] | pEC50 [15] | pEC50 [16] |
| --- | --- | --- | --- | --- | --- | --- | --- | --- | --- | --- | --- | --- | --- | --- | --- | --- |
| CC(C)C[C@@H]1NC(=O)CNC(=O)[C@H](CC(C)C)NC(=O)[C@H](CO)NC(=O)[C@H](CCCCN)NC(=O)[C@@H]2CSSC[C@@H](C(=O)N[C@H](C(N)=O)C(C)C)NC(=O)[C@H](C)NC(=O)[C@@H]3CSSC[C@H](NC(=O)[C@H](Cc4ccccc4)NC(=O)[C@H](Cc4cnc[nH]4)NC(=O)[C@H](CC(C)C)NC(=O)[C@H](CC(N)=O)NC(=O)CCSSC[C@H](NC(=O)[C@H](CCCNC(=N)N)NC(=O)CNC(=O)[C@H](CC(C)C)NC1=O)C(=O)N[C@@H](C)C(=O)N1CCC[C@@H]1C(=O)N[C@@H]([C@@H](C)O)C(=O)N[C@@H](Cc1ccc(OCCSCCO)cc1)C(=O)N3)C(=O)N[C@@H](CCC(N)=O)C(=O)N[C@@H](CC(C)C)C(=O)N[C@@H](CCCNC(=N)N)C(=O)N2 | 9.55 | 0.5 | 8.47 | 1.2 | < 6.00 | 7.32 | < 6.00 | < 6.00 | < 6.00 | 12 | 2.4 | 8.60 | – | – | – | – |
| CC(C)C[C@@H]1NC(=O)CNC(=O)[C@H](CC(C)C)NC(=O)[C@H](CO)NC(=O)[C@H](CCCCN)NC(=O)[C@@H]2CSSC[C@@H](C(=O)N[C@H](C(N)=O)C(C)C)NC(=O)[C@H](C)NC(=O)[C@@H]3CSSC[C@H](NC(=O)[C@H](Cc4ccccc4)NC(=O)[C@H](Cc4cnc[nH]4)NC(=O)[C@H](CC(C)C)NC(=O)[C@H](CC(N)=O)NC(=O)CCSSC[C@H](NC(=O)[C@H](CCCNC(=N)N)NC(=O)CNC(=O)[C@H](CC(C)C)NC1=O)C(=O)N[C@@H](C)C(=O)N1CCC[C@@H]1C(=O)N[C@@H]([C@@H](C)O)C(=O)N[C@@H](Cc1ccc(OCC[S+]([O-])CCO)cc1)C(=O)N3)C(=O)N[C@@H](CCC(N)=O)C(=O)N[C@@H](CC(C)C)C(=O)N[C@@H](CCCNC(=N)N)C(=O)N2 (stereo partly drawn) | 8.09 | 15 | 5.91 | 424 | – | – | – | – | – | 152 | – | – | – | – | – | – |
| CC(C)C[C@@H]1NC(=O)CNC(=O)[C@H](CC(C)C)NC(=O)[C@H](CO)NC(=O)[C@H](CCCCN)NC(=O)[C@@H]2CSSC[C@@H](C(=O)N[C@H](C(N)=O)C(C)C)NC(=O)[C@H](C)NC(=O)[C@@H]3CSSC[C@H](NC(=O)[C@H](Cc4ccccc4)NC(=O)[C@H](Cc4cnc[nH]4)NC(=O)[C@H](CC(C)C)NC(=O)[C@H](CC(N)=O)NC(=O)CCSSC[C@H](NC(=O)[C@H](CCCNC(=N)N)NC(=O)CNC(=O)[C@H](CC(C)C)NC1=O)C(=O)N[C@@H](C)C(=O)N1CCC[C@@H]1C(=O)N[C@@H]([C@@H](C)O)C(=O)N[C@@H](Cc1ccc(OCCC4CCCC4)cc1)C(=O)N3)C(=O)N[C@@H](CCC(N)=O)C(=O)N[C@@H](CC(C)C)C(=O)N[C@@H](CCCNC(=N)N)C(=O)N2 | 9.30 | 0.9 | 8.77 | 0.59 | 6.05 | 8.52 | 7.17 | 6.08 | 6.99 | 3 | 0.7 | 9.52 | 9.30 | 7.01 | 8.40 | 7.38 |
| CC(C)C[C@@H]1NC(=O)CNC(=O)[C@H](CC(C)C)NC(=O)[C@H](CO)NC(=O)[C@H](CCCCN)NC(=O)[C@@H]2CSSC[C@@H](C(=O)N[C@H](C(N)=O)C(C)C)NC(=O)[C@H](C)NC(=O)[C@@H]3CSSC[C@H](NC(=O)[C@H](Cc4ccccc4)NC(=O)[C@H](Cc4cnc[nH]4)NC(=O)[C@H](CC(C)C)NC(=O)[C@H](CC(N)=O)NC(=O)CCSSC[C@H](NC(=O)[C@H](CCCNC(=N)N)NC(=O)CNC(=O)[C@H](CC(C)C)NC1=O)C(=O)N[C@@H](C)C(=O)N1CCC[C@@H]1C(=O)N[C@@H]([C@@H](C)O)C(=O)N[C@@H](Cc1ccc(OCC4CCCN4)cc1)C(=O)N3)C(=O)N[C@@H](CCC(N)=O)C(=O)N[C@@H](CC(C)C)C(=O)N[C@@H](CCCNC(=N)N)C(=O)N2 (stereo partly drawn) | – | 10 | 7.42 | 13 | – | – | – | – | – | 7 | 1.3 | – | – | – | – | – |
| CC(C)C[C@@H]1NC(=O)CNC(=O)[C@H](CC(C)C)NC(=O)[C@H](CO)NC(=O)[C@H](CCCCN)NC(=O)[C@@H]2CSSC[C@@H](C(=O)N[C@H](C(N)=O)C(C)C)NC(=O)[C@H](C)NC(=O)[C@@H]3CSSC[C@H](NC(=O)[C@H](Cc4ccccc4)NC(=O)[C@H](Cc4cnc[nH]4)NC(=O)[C@H](CC(C)C)NC(=O)[C@H](CC(N)=O)NC(=O)CCSSC[C@H](NC(=O)[C@H](CCCNC(=N)N)NC(=O)CNC(=O)[C@H](CC(C)C)NC1=O)C(=O)N[C@@H](C)C(=O)N1CCC[C@@H]1C(=O)N[C@@H]([C@@H](C)O)C(=O)N[C@@H](Cc1ccc(OCCCCO)cc1)C(=O)N3)C(=O)N[C@@H](CCC(N)=O)C(=O)N[C@@H](CC(C)C)C(=O)N[C@@H](CCCNC(=N)N)C(=O)N2 | – | 1.6 | 8.00 | 3.5 | – | – | – | – | – | 12 | 2.2 | – | – | – | – | – |
